The supplement of paper PMC3578754
Fold change is the IC50 on the isolate divided by the IC50 on a reference virus; 1 = unchanged, higher = more resistant. Changes are given against the subtype B consensus. No active / inactive call. The values were gathered from many studies (numbered anew) with different assays, which the source does not name. Most viruses are clinical isolates; some are laboratory strains or clones with known resistance changes. Isolates with mixed residues are left out; stretches that were not sequenced show no change. Round top values that many isolates share are read here as limits; other very high values and 0.1 may be limits too.

Tests used:
Experiment in all cases: fold change of IC50 against reference virus; higher = more resistant
abacavir = compound: Nc1nc(NC2CC2)c2ncn([C@H]3C=C[C@@H](CO)C3)c2n1 [abacavir]
Procedure: (§1)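 Cell-culture drug susceptibility tests of virus bearing the reverse transcriptase of each isolate, gathered from many studies.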

stavudine = compound: Cc1cn([C@H]2C=C[C@@H](CO)O2)c(=O)[nH]c1=O [stavudine]
Procedure: as §1

nevirapine = compound: Cc1ccnc2c1NC(=O)c1cccnc1N2C1CC1 [nevirapine]
Procedure: as §1

zidovudine = compound: Cc1cn([C@H]2C[C@H](N=[N+]=[N-])[C@@H](CO)O2)c(=O)[nH]c1=O [zidovudine]
Procedure: as §1

didanosine = compound: O=c1[nH]cnc2c1ncn2[C@H]1CC[C@@H](CO)O1 [didanosine]
Procedure: as §1

efavirenz = compound: O=C1Nc2ccc(Cl)cc2[C@@](C#CC2CC2)(C(F)(F)F)O1 [efavirenz]
Procedure: as §1

delavirdine = compound: CC(C)Nc1cccnc1N1CCN(C(=O)c2cc3cc(NS(C)(=O)=O)ccc3[nH]2)CC1 [delavirdine]
Procedure: as §1

| Test System | fold change of IC50 against reference virus (abacavir) | fold change of IC50 against reference virus (stavudine) | fold change of IC50 against reference virus (nevirapine) | fold change of IC50 against reference virus (zidovudine) | fold change of IC50 against reference virus (didanosine) | fold change of IC50 against reference virus (efavirenz) | fold change of IC50 against reference virus (delavirdine) |
| --- | --- | --- | --- | --- | --- | --- | --- |
| HIV-1 isolate 1277 (reverse transcriptase changes: K20R K122E I142V T165I M184V K277R A288S I293V, study 129) | 4 | 1 | – | – | – | – | – |
| HIV-1 isolate 842 (reverse transcriptase changes: K70R D177N I178L Q197E R211K V245T D250E T286A I293V, study 129) | 1 | – | 3 | – | – | – | – |
| HIV-1 isolate 757 (reverse transcriptase changes: M41L D67N T69D D123E M184V G196R L210W T215Y, study 32) | 30 | – | – | 60 | – | – | – |
| HIV-1 isolate 311 (reverse transcriptase changes: K102Q D123E S162C M184V T200A Q207E A272P K277R I293V, study 129) | 3 | 1 | – | – | – | – | – |
| HIV-1 isolate 716 (reverse transcriptase changes: M41L E44D V118I L210W R211K T215Y, study 93) | 4.7 | – | – | 100 | – | – | – |
| HIV-1 isolate 995 (reverse transcriptase changes: K122E F214L A272P K277R M357T A376T A400T N447S D460N S468T S519N, study 13) | 1 | – | 1 | 1 | 1 | – | – |
| HIV-1 isolate 178 (reverse transcriptase changes: E44D, study 93) | 1.3 | – | – | 2 | – | – | – |
| HIV-1 isolate 276 (reverse transcriptase changes: M41L E44D V118I M184V L210W R211K T215Y, study 93) | 7.9 | – | – | 32.2 | – | – | – |
| HIV-1 isolate 385 (reverse transcriptase changes: K103N K122E D123E I135M S162C T200A Q207A R211K P225H V245Q K277R I293V, study 129) | 1 | – | – | – | – | – | – |
| HIV-1 isolate 287 (reverse transcriptase changes: M41L L210W R211K T215Y, study 93) | 3.8 | – | – | 100 | – | – | – |
| HIV-1 isolate 1600 (reverse transcriptase changes: V118I, study 93) | 1.2 | – | – | 1 | – | – | – |
| HIV-1 isolate 1587 (reverse transcriptase changes: D67G S68G T69D K70R V118I I135T M184V Q197K F214L T215F D218E K219Q, study 32) | 24 | – | – | 28 | – | – | – |
| HIV-1 isolate 1229 (reverse transcriptase changes: M184V, study 93) | 1.5 | – | – | 1.4 | – | – | – |
| HIV-1 isolate 1291 (reverse transcriptase changes: M41L E44D D67N T69D A98S K122E D123E D177E M184V L210W R211K T215Y K219N, study 32) | 62 | – | – | 84 | – | – | – |
| HIV-1 isolate 1037 (reverse transcriptase changes: K102Q Q151M S162C K277R, study 9) | 3.5 | 9.2 | – | 4.7 | 5.1 | – | – |
| HIV-1 isolate 72 (reverse transcriptase changes: E44D M184V, study 93) | 3.1 | – | – | 1.2 | – | – | – |
| HIV-1 isolate 1610 (reverse transcriptase changes: M41L M184V L210W R211K T215Y, study 93) | 8 | – | – | 51 | – | – | – |

| Test System | fold change of IC50 against reference virus (abacavir) | fold change of IC50 against reference virus (stavudine) | fold change of IC50 against reference virus (nevirapine) | fold change of IC50 against reference virus (zidovudine) | fold change of IC50 against reference virus (didanosine) | fold change of IC50 against reference virus (efavirenz) | fold change of IC50 against reference virus (delavirdine) |
| --- | --- | --- | --- | --- | --- | --- | --- |
| HIV-1 isolate 1415 (reverse transcriptase changes: E44D V118I M184V, study 93) | 3.1 | – | – | 1 | – | – | – |
| HIV-1 isolate 857 (reverse transcriptase changes: V118I M184V, study 93) | 1.8 | – | – | 1 | – | – | – |
| HIV-1 isolate 1237 (reverse transcriptase changes: L100I K102Q K103N S162C K277R, study 53) | – | – | 69 | – | – | 680 | 190 |
| HIV-1 isolate 506 (reverse transcriptase changes: A98G K102Q S162C K277R, study 53) | – | – | 8 | – | – | 3 | 3 |
| HIV-1 isolate 1581 (reverse transcriptase changes: K102Q E138A S162C Y188L K277R, study 53) | – | – | 680 | – | – | 150 | 75 |
| HIV-1 isolate 1583 (reverse transcriptase changes: K102Q S162C P225H K277R, study 53) | – | – | 3 | – | – | 2 | 0.2 |
| HIV-1 isolate 1217 (reverse transcriptase changes: K11T K20R V21I V35T T39K V60I K122E D123N K173S D177G V179I G190A T200A I202V Q207A V245Q E248D T286A E291D I293V P294T E312D, study 14) | – | – | 51 | – | – | 2.2 | 0.1 |
| HIV-1 isolate 189 (reverse transcriptase changes: D67N K70R K103N Y181C T215Y K219Q, study 107) | 2.1 | 1.7 | – | 36.4 | 0.7 | – | – |
| HIV-1 isolate 656 (reverse transcriptase changes: K20R V35T V60I D121H K122E I135T K173L Q174K D177E T200A Q207A R211S V245K D250E T286A E291D V292I I293V E312D A327V, study 14) | – | – | 1 | – | – | 1.5 | 1.3 |
| HIV-1 isolate 494 (reverse transcriptase changes: K102Q K103N S162C Y181C K277R, study 110) | – | – | 500 | – | – | 31 | ≥ 250 |
| HIV-1 isolate 1411 (reverse transcriptase changes: K11T K20R V21I V35T T39K K43E D123N K173T Q174K D177E V179I Y181C I202V Q207A R211S V245Q E248D T286A E291D V292I I293V E312D, study 14) | – | – | 208 | – | – | 1.8 | 45 |
| HIV-1 isolate 672 (reverse transcriptase changes: K11T K20R V21I V35T T39K V60I K103N K122E D123N K173A D177G V179I G196E T200A I202V Q207A V245Q E248D T286A E291D I293V P294T K311R E312D, study 14) | – | – | 16 | – | – | 9.5 | 25 |
| HIV-1 isolate 1468 (reverse transcriptase changes: K101E K102Q S162C G190A K277R, study 110) | – | – | 500 | – | – | 123 | 2 |
| HIV-1 isolate 195 (reverse transcriptase changes: E44D V118I, study 93) | 2.2 | – | – | 1.2 | – | – | – |
| HIV-1 isolate 1380 (reverse transcriptase changes: K102Q S162C F227L K277R, study 53) | – | – | 3 | – | – | 0.5 | 0.1 |
| HIV-1 isolate 1272 (reverse transcriptase changes: K102Q S162C G190A K277R I293V, study 55) | – | – | 96 | – | – | 7 | 0.4 |
